Here are results for 1 compound from PMC9916866 (International Journal of Molecular Sciences, 2023).

Chains of the proteins cited; added tags and fusions are not shown.
UniProt P25095, whole entry, looked up: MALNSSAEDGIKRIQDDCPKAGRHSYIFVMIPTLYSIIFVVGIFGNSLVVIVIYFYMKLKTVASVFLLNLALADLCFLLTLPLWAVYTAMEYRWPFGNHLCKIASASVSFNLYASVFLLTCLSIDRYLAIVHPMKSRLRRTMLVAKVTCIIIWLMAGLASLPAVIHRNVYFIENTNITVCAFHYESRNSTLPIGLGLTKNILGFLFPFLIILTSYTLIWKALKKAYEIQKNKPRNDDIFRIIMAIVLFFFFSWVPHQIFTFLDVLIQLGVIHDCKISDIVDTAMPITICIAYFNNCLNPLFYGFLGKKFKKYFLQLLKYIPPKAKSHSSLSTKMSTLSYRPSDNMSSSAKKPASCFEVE

This experiment has as its target AT1 receptor (Rattus norvegicus, UniProt P25095). The experiment in a line: IP1 production (HTRF), AT1-mediated Gαq/PLC pathway in CHO-AT1a-EGFP cells. The class given is cell-based. To be noted: read-out: KB, IP1 production; from Schild regression, n = 3.

For `CC(C)[C@@H]1NC(=O)[C@H](Cc2c[nH]c3ccccc23)NC(=O)[C@H](Cc2ccccc2)NC(=O)[C@H](Cc2c[nH]cn2)NC(=O)[C@@H](N)CSSC[C@@H](C(=O)N2CCC[C@H]2C(=O)O)NC1=O` [A-CTX-cMila], the Kb stood at 17.1 µM.
